Laboratory results as given in publication PMC10294627, “PhoPQ Regulates Quinolone and Cephalosporin Resistance Formation in Salmonella Enteritidis at the Transcriptional Level” (mBio, 2023).

System: PhoP (phosphorylated, PhoP-P)
Assay: EMSA
Conditions: PhoP-P 1-8 ug in 20 uL, 25 nM probe, 2 mM Mg2+, poly(dI-dC), 10 mM Tris pH 8.0, 125 mM KCl, 5% glycerin, 2 mM MgCl2, 0.01 mg/mL BSA, 1 mM DTT, 0.5 ug poly(dI-dC), 30 C 30 min, 5% native PAGE, recombinant protein, residues 1-224, protein details: N-terminal His (pET28a), label: FAM (forward primer), probe letters rebuilt from the primers and the genome

“ACAACGGTTCTACAAGCCAATAATTACAATAAAATCATAGTGATAAAAGAAAAACGATCAAATCAAAGCGAGAACTCAGGGGAAGTTTGACGTTGTTCACAAAGTTCCGCGAAAATAACATTTGTTTACATATTTTTTCCTTTTGAAACTAAATCTTTATATTTGTAGCACTTTCACGGTAGCGAAACGTTAGTTTGAATGGAAAGATGCCTGTCAGACAC (double strand) [PompF-FAM]”: binds (abolished by 50x unlabeled PompF).

“TGCCGTCTAATCTCGTCAAAGCCCGATAATGCGTTATTTATCGGGCTTTTTCATCTTCGTTCCTCGCCTGTTAGGTTTCTCCTCTTTTAGCAATTTGGGTTGTTATCAAAACGTTACATTTTGTTTGTGTTATCTTTAATACAACCCTGTGGAGAATCAGGGTAACGCAACCCTGTCATTTAAGGAGGAGCTATGTCGTCAACCCTACGAGAAGCCAGTAAGGATACATTG (double strand) [PacnA-FAM]”: binds (abolished by 50x unlabeled PacnA).

The exact form of at least one protein or probe is not confirmed.
